# Reference: US20160024159A1, “Potent and selective inhibitors of Nav1.7” (published 2016)
# Where two headings read alike, the source gives them in different places.
# What was measured:
# Test in all cases: cell-based or functional assay
# [1] = molecular target: mouse Nav1.7 voltage-gated sodium channel (mouse) (UniProt Q62205)
# [2] = molecular target: human Nav1.7 voltage-gated sodium channel (human) (UniProt Q15858)
# [3] = molecular target: human Nav1.6 voltage-gated sodium channel (human) (UniProt Q9UQD0)
# [4] = molecular target: human Nav1.7 voltage-gated sodium channel (human) (UniProt Q15858); remark: listed apart in the source
# [5] = molecular target: human voltage-gated sodium channel Nav1.5 (human) (UniProt Q14524)
# [6] = molecular target: human voltage-gated sodium channel Nav1.4 (human) (UniProt P35499)
# [7] = molecular target: human voltage-gated sodium channel Nav1.3 (human) (UniProt Q9NY46)
# [8] = molecular target: human voltage-gated sodium channel Nav1.7 (human) (UniProt Q15858)
# [9] = molecular target: rat Nav1.7 voltage-gated sodium channel (rat) (UniProt O08562)
# [10] = molecular target: mouse Nav1.4 voltage-gated sodium channel (mouse) (UniProt Q9ER60)
Substance,PX mNav1.7 Tonic IC50 [1] [nM],mNav1.7/hNav1.7 [1],PX hNav1.7 Tonic IC50 [2] [nM],PX hNav1.6 Tonic IC50 [3] [nM],PX hNav1.7 Tonic IC50 [4] [nM],other results
CyA-[Nle6]JzTx-V(1-29) (peptide; modification not given),0.957,3.09,0.31,,,
D-Leu-[Nle6]JzTx-V(1-29) (peptide; modification not given),12.6,84,0.15,,,
Pra-[Nle6;Asp28]JzTx-V(1-29) (peptide; modification not given),,,,1620,5.98,
[Glu29]JzTx-V(1-29) (peptide; modification not given),,,,> 10000,261,IC50 (IonWorks Quattro) [5]: > 5000 nM; IC50 (IonWorks Quattro) [6]: > 5000 nM; IC50 (IonWorks Quattro) [7]: 5000 nM; IC50 (IonWorks Quattro) [8]: 280 nM
Atz(NPEG23)-[Nle6]JzTx-V(1-29) (peptide; modification not given),6.91,2.24,3.09,,3.09,
[Glu4]JzTx-V(1-29) (peptide; modification not given),,,,> 10000,847,PX hNav1.7 Tonic IC50 [8]: 847 nM
Trp-[Nle6]JzTx-V(1-29) (peptide; modification not given),1.34,4.07,0.33,,,
Pra-[Nle6;Glu28;Trp29]JzTx-V(1-29) (peptide; modification not given),3.11,8.82,0.352,,,PX rNav1.7 Tonic IC50 [9]: 0.097 nM; rNav1.7/hNav1.7 [9]: 0.27
Sar-[Nle6]JzTx-V(1-29) (peptide; modification not given),3.45,10.8,0.32,,,
Atz(NPEG9)-[Nle6]JzTx-V(1-29) (peptide; modification not given),7.11,1.65,4.3,,,PX rNav1.7 Tonic IC50 [9]: 0.961 nM; rNav1.7/hNav1.7 [9]: 0.22
Pra-[Nle6;Glu28;Phe29]JzTx-V(1-29) (peptide; modification not given),3.45,8.9,0.388,,,PX rNav1.7 Tonic IC50 [9]: 0.296 nM; rNav1.7/hNav1.7 [9]: 0.76
Leu-[Nle6]JzTx-V(1-29) (peptide; modification not given),1.33,10.2,0.13,,,PX mNav1.4 Tonic IC50 [10]: 1.8 nM; mNav1.4/mNav1.7 [10]: 1.4
Nva-[Nle6]JzTx-V(1-29) (peptide; modification not given),,,0.82,,,PX mNav1.4 Tonic IC50 [10]: 4.54 nM
Pra-[hPhe5;Nle6;Glu28]JzTx-V(1-29) (peptide; modification not given),,,,998,0.599,
Pra-[Nle6;5-BrW24;Glu28]JzTx-V(1-29) (peptide; modification not given),0.911,23.3,0.039,49.2,0.059,PX rNav1.7 Tonic IC50 [9]: 2.43 nM; rNav1.7/hNav1.7 [9]: 62.3
Glu-Pra-[Nle6;Glu28]JzTx-V(1-29) (peptide; modification not given),,,,174,0.738,
Glu-[Nle6;Glu28]JzTx-V(1-29) (peptide; modification not given),,,,522,0.765,
[Glu28]JzTx-V(1-29) (peptide; modification not given),,,,248,0.568,IC50 (IonWorks Quattro) [5]: > 5000 nM; IC50 (IonWorks Quattro) [6]: 830 nM; IC50 (IonWorks Quattro) [7]: 330 nM; IC50 (IonWorks Quattro) [8]: 28 nM
"Pra-[Nle6;Glu8,28]JzTx-V(1-29) (peptide; modification not given)",,,,6460,16.4,
